Anti-infective test results gathered from many reports (values: NIAID ChemDB through PubChem).

All rows: whole-cell or culture tests; agent: HIV-1; measure: EC50

Rows are shuffled and stem from different studies.

structure	strain or isolate	read by	cell line	changes	value
COc1cnc(-n2ccnn2)c2[nH]cc(C(=O)C(=O)N3CCN(C(=N)c4ccccc4)CC3)c12	Luciferase reporter virus	luciferase	HeLa(CD4+) + HeLa	-	<0.5 µM
Cc1ccc2occ(C=O)c(=O)c2c1	IIIB	MTT	HTLV-I-bearing MT-4	-	>40 µg/mL
Cc1cn([C@H]2C[C@H](N=[N+]=[N-])[C@@H]([C@H](C)O)O2)c(=O)[nH]c1=O	IIIB	cytopathic effect / trypan blue	MT-4	-	>200 µg/mL
COc1ccc2occ(C=O)c(=O)c2c1	IIIB	MTT	HTLV-I-bearing MT-4	-	>200 µg/mL
Cc1cn([C@H]2C[C@H](N=[N+]=[N-])[C@@H](CO)O2)c(=O)[nH]c1=O	NL4-3	luciferase	TZM-bl	-	0.00938 µM
CC[C@@H]1CN(C(=NC#N)c2ccccc2)CCN1C(=O)C(=O)c1c[nH]c2c(-n3ccnn3)ncc(F)c12	Luciferase reporter virus	luciferase	HeLa(CD4+) + HeLa	-	<0.5 µM
COc1ncc(OC)c2c(C(=O)C(=O)N3CCC(=C(c4ccccc4)c4ccc(SC)cc4)CC3)c[nH]c12	-	luciferase	HeLa	-	<1 µM
N#CN=C(c1ccccc1)N1CCN(C(=O)C(=O)c2c[nH]c3c(-n4ccnn4)ncc(F)c23)CC1	Luciferase reporter virus	luciferase	HeLa(CD4+) + HeLa	-	<0.5 µM
CC(C)C[C@H](NC(=O)[C@@H](NC(=O)[C@@H](N)Cc1c[nH]c2ccccc12)C(C)C)[C@@H](O)CC(=O)NC(Cc1ccccc1)c1ccccc1	-	syncytia	MT-4	-	5 µM
COc1ncnc(NS(=O)(=O)c2ccc(N=C3C(=O)N(CN4CCCC4)c4ccccc43)cc2)c1OC	LAI	cytopathic effect / MTT	MT-4	-	>2 µg/mL
Nc1nc2c(ncn2[C@H]2C=C[C@@H](CO)O2)c(=O)[nH]1	IIIB Laboratory strain	cytopathic effect / trypan blue	MT-4	-	>5 µM
COc1ccc2c(c1)C(=O)C(=O)C(C1=C(Cl)C(=O)c3ccccc3C1=O)=C2O	IIIB	cytopathic effect / MTT	CEM	-	2.4 µM
N#Cc1coc2ccccc2c1=O	IIIB	MTT	HTLV-I-bearing MT-4	-	>200 µg/mL
CC(C)=CCOc1cc(NC(=S)c2ccoc2C)ccc1Cl	NL4-3	p24	CEM + CEM-SS	-	0.006 µM
CCc1cc(=O)c2ccc3c(c2o1)[C@@H](OC(=O)C12CCC(C)(C(=O)O1)C2(C)C)[C@@H](OC(=O)C12CCC(C)(C(=O)O1)C2(C)C)C(C)(C)O3	NL4-3	p24	MT-4	-	0.014 µM
CC.CC(C)C[C@H](NC(=O)[C@@H](NC(=O)[C@H](Cc1c[nH]c2ccccc12)NC(=O)CCCCCCC(=O)Nc1ccn([C@H]2CC[C@@H](CO[Si](c3ccccc3)(c3ccccc3)C(C)(C)C)O2)c(=O)n1)C(C)C)[C@@H](O)CC(=O)NC(Cc1ccccc1)c1ccccc1	-	syncytia	MT-4	-	0.5 µM
Cc1cn([C@H]2C[C@H](N=[N+]=[N-])[C@@H]([C@@H](C)O)O2)c(=O)[nH]c1=O	IIIB	cytopathic effect / trypan blue	MT-4	-	>200 µg/mL
NC1=C(C2=C(N)C(=O)c3ccccc3C2=O)C(=O)c2ccccc2C1=O	IIIB	cytopathic effect / MTT	CEM	-	0.7 µM
CC(=O)c1cc2ccccc2oc1=O	IIIB	MTT	HTLV-I-bearing MT-4	-	>1000 µg/mL
COc1ccnc2[nH]cc(C(=O)C(=O)N3CCC(=C(C#N)c4ccccn4)CC3)c12	-	luciferase	HeLa	-	<1 µM
Nc1ccn([C@H]2CC[C@@H](CO)O2)c(=O)n1	NL4-3	β-galactosidase	-	P203S L204I	0.646 µM
N#CC(=C1CCN(C(=O)C(=O)c2c[nH]c3c(-c4ncco4)ccnc23)CC1)c1ccccc1	-	luciferase	HeLa	-	<1 µM
NC1=C(C2=C(Cl)C(=O)c3ccccc3C2=O)C(=O)c2ccccc2C1=O	IIIB	cytopathic effect / MTT	CEM	-	3.5 µM
COc1ncnc(NS(=O)(=O)c2ccc(N=C3C(=O)N(CN4CCNCC4)c4ccccc43)cc2)c1OC	LAI	cytopathic effect / MTT	MT-4	-	>2 µg/mL
CC1(C)C=Cc2c(ccc3c2C(=O)C(=O)C(C2=C(Cl)C(=O)c4ccccc4C2=O)=C3O)O1	IIIB	cytopathic effect / MTT	CEM	-	2.8 µM
COc1ncc(OC)c2c(C(=O)C(=O)N3CCC(=C(c4ccccc4)c4cccc(SC)c4)CC3)c[nH]c12	-	luciferase	HeLa	-	<1 µM
COc1ccc(N(C)C(=O)[C@H](Cc2cc(F)cc(F)c2)NC(=O)c2cccc(-c3cn(C4CC(n5cc(C)c(=O)[nH]c5=O)OC4CO)nn3)c2)cc1	NL4-3	MTT	TZM-bl	-	>27.94 µM
C[C@H]1CN(C(=NC#N)c2ccccc2)CCN1C(=O)C(=O)c1c[nH]c2c(-c3cc4ccccc4s3)ccc(F)c12	Luciferase reporter virus	luciferase	HeLa(CD4+) + HeLa	-	<0.5 µM
Cc1cc(CNC(=O)c2nc3n(c(=O)c2O)[C@H](C)COC[C@H]3N(C)C(=O)C(=O)N(C)C)ccc1F	-	single cycle	HeLa P4-2	G140S/Q148H	0.072 µM
CC(C)=CCC[C@]1(C)C=Cc2c(ccc3c2C(=O)C(O)=C(C2=C(C4=C(O)C(=O)c5c(ccc6c5C=C[C@@](C)(CCC=C(C)C)O6)C4=O)C(=O)c4c(ccc5c4C=C[C@@](C)(CCC=C(C)C)O5)C2=O)C3=O)O1	IIIB	cytopathic effect / MTT	CEM	-	0.06 µM
CN(C)S(=O)(=O)/N=C(\c1ccccc1)N1CCN(C(=O)C(=O)c2c[nH]c3cccc(F)c23)CC1	Luciferase reporter virus	luciferase	HeLa(CD4+) + HeLa	-	>0.5 µM
COc1ncnc(NS(=O)(=O)c2ccc(N=C3C(=O)N(CN4CCOCC4)c4ccccc43)cc2)c1OC	LAI	cytopathic effect / MTT	MT-4	-	>2 µg/mL
COC1=C(C2=C(Br)C(=O)c3cc(OC)ccc3C2=O)C(=O)c2ccccc2C1=O	IIIB	cytopathic effect / MTT	CEM	-	1.1 µM
Cc1cc(CNC(=O)c2nc3n(c(=O)c2O)[C@@H](C)COC[C@H]3N(C)C(=O)C(=O)N(C)C)ccc1F	-	single cycle	HeLa P4-2	Y143R	0.002 µM
COc1ncnc(NS(=O)(=O)c2ccc(N=C3C(=O)N(CN4CCOCC4)c4ccc(C)cc43)cc2)c1OC	LAI	cytopathic effect / MTT	MT-4	-	>8.9 µg/mL
O=C(Nc1ccc(Cl)c(C(=O)OC2CCCCC2)c1)c1ccccc1F	IIIB	syncytia	CEM	RT-D138K	4 µg/mL
CC1(C)C=Cc2c(ccc3c2C(=O)C(=O)C(C2=C(I)C(=O)c4ccccc4C2=O)=C3O)O1	IIIB	cytopathic effect / MTT	CEM	-	2 µM
O=C(C(=O)N1CCN(C(=Nc2cccnc2)c2ccccc2)CC1)c1c[nH]c2cccc(F)c12	Luciferase reporter virus	luciferase	HeLa(CD4+) + HeLa	-	>0.5 µM
CC[C@@H]1COC[C@H](N(C)C(=O)C(=O)N(C)C)c2nc(C(=O)NCc3ccc(F)cc3)c(O)c(=O)n21	-	single cycle	HeLa P4-2	N155H	0.007 µM
CCc1ncn(-c2ncc(OC)c3c(C(=O)C(=O)N4CCN(C(=NC#N)c5ccccc5)CC4)c[nH]c23)n1	Luciferase reporter virus	luciferase	HeLa(CD4+) + HeLa	-	<0.5 µM
NCCCCCCNC(=O)Cc1cn([C@@H]2C=C[C@H](CO)O2)c(=O)[nH]c1=O	IIIB	cytopathic effect / MTT	CEM + CEM-SS	-	>10 µM
COc1ccc(C(=C2CCN(C(=O)C(=O)c3c[nH]c4c(OC)ncc(OC)c34)CC2)c2ccccc2)cc1	-	luciferase	HeLa	-	<1 µM
NCCCCCCCCNC(=O)Cc1cn([C@@H]2C=C[C@H](CO)O2)c(=O)[nH]c1=O	LAI	cytopathic effect / MTT	CEM + CEM-SS	-	>100 µM
COc1ncnc(NS(=O)(=O)c2ccc(N=C3C(=O)N(CN4CCCC4)c4ccc(C)cc43)cc2)c1OC	LAI	cytopathic effect / MTT	MT-4	-	>10.1 µg/mL
CCN(C(=O)C(=O)N(C)C)[C@@H]1CC[C@H](OC)Cn2c1nc(C(=O)NCc1ccc(F)cc1)c(O)c2=O	-	single cycle	HeLa P4-2	N155H	0.002 µM
COc1ncc(OC)c2c(C(=O)C(=O)N3CCC(=C(Cl)c4ccccc4)CC3)c[nH]c12	-	luciferase	HeLa	-	<1 µM
Cc1cn([C@H]2C=C[C@@H](CO)O2)c(=O)[nH]c1=O	IIIB	cytopathic effect / MTT	CEM + CEM-SS	-	0.2 µM
N#CC(=C1CCN(C(=O)C(=O)c2c[nH]c3c(-c4nccs4)ccnc23)CC1)c1ccccc1	-	luciferase	HeLa	-	<1 µM
O=Cc1coc2ccccc2c1=O	IIIB	MTT	HTLV-I-bearing MT-4	-	>40 µg/mL

A second listing of 7 rows from above:

structure	strain or isolate	read by	cell line	changes	value
C[C@H]1CN(C(=NC#N)c2ccccc2)CCN1C(=O)C(=O)c1c[nH]c2c(-c3cc4ccccc4s3)ccc(F)c12	Luciferase reporter virus	luciferase	HeLa(CD4+) + HeLa	-	<0.5 µM
CCN(C(=O)C(=O)N(C)C)[C@@H]1CC[C@H](OC)Cn2c1nc(C(=O)NCc1ccc(F)cc1)c(O)c2=O	-	single cycle	HeLa P4-2	N155H	0.002 µM
CC(C)C[C@H](NC(=O)[C@@H](NC(=O)[C@@H](N)Cc1c[nH]c2ccccc12)C(C)C)[C@@H](O)CC(=O)NC(Cc1ccccc1)c1ccccc1	-	syncytia	MT-4	-	5 µM
Cc1cn([C@H]2C[C@H](N=[N+]=[N-])[C@@H]([C@@H](C)O)O2)c(=O)[nH]c1=O	IIIB	cytopathic effect / trypan blue	MT-4	-	>200 µg/mL
COc1ncnc(NS(=O)(=O)c2ccc(N=C3C(=O)N(CN4CCOCC4)c4ccc(C)cc43)cc2)c1OC	LAI	cytopathic effect / MTT	MT-4	-	>8.9 µg/mL
CN(C)S(=O)(=O)/N=C(\c1ccccc1)N1CCN(C(=O)C(=O)c2c[nH]c3cccc(F)c23)CC1	Luciferase reporter virus	luciferase	HeLa(CD4+) + HeLa	-	>0.5 µM
Cc1cn([C@H]2C[C@H](N=[N+]=[N-])[C@@H]([C@H](C)O)O2)c(=O)[nH]c1=O	IIIB	cytopathic effect / trypan blue	MT-4	-	>200 µg/mL

ECn is the concentration giving n% inhibition of infection, replication or growth. An empty or dashed field is not shown.